# Measured values taken from publication PMC10372912, “Evidence for direct interaction between the oncogenic proteins E6 and E7 of high-risk human papillomavirus (HPV)” (The Journal of Biological Chemistry, 2023).
# B1: mTagBFP2-18E6 (natural protein)
# chain: not shown
# notes: Cloned in pmTagBFP-C1; SG linker between the fluorescent protein and the viral protein; also called mTagBFP2-E6 (HPV18); HPV 18E6; source: C33A, transfected, in cells; not shown: mTagBFP2, N-terminal, kept
# Biological target: T1, EYFP-18E7 (human papillomavirus type 18)
# T1 construct: Cloned in pEYFP-C1; SG linker between EYFP and E7; also called EYFP-E7 (HPV18); HPV 18E7; source: C33A, transfected, in cells; not shown: EYFP, N-terminal, kept
# Assay: FRET or BRET; flow cytometry-based FRET (FACS-FRET) in C33A cells coexpressing mTagBFP2-E6 and EYFP-E7 of the same HPV type; at least 10% FRET and at least 500 FRET-positive cells count as an interaction; three biological replicates
# Conditions: partners not purified
binder,measurement,value
B1,percent FRET,15%
